What was measured:
[1] = tested on: O=[N+]([O-])c1ccc(OP(=O)(O)Oc2ccc([N+](=O)[O-])cc2)cc1; assay: purified protein; conditions: pH 8.0; 37.0 °C
[2] = tested on: O=[N+]([O-])c1ccc(OP(=O)(O)O)cc1; assay: purified protein; conditions: pH 8.0; 37.0 °C

rRv2577 (Rv2577, MapH) (Mycobacterium tuberculosis H37Rv)
Km [1]: 60 µM | kcat/Km [1]: 280 M⁻¹ s⁻¹ | Km [2]: 82 µM | kcat/Km [2]: 485 M⁻¹ s⁻¹
